Record: PubChem BioAssay AID624099 (ICCB-Longwood, 2012)
Screen: 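Knock-downs relieving repression by E2 of an HPV18 LCR luciferase reporter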 (primary screen). Cell system: human C33A cervical carcinoma cells (HPV-negative) stably expressing BPV1 E2 and an HPV18 LCR luciferase reporter. Knock-down reagent: siRNA pool against human genes, 40 nM. Timing: 72 h. Detection: 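HPV18 LCR reporter light per well, converted to plate-wise z-scores that exclude control wells, and averaged over triplicate plates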. Reading the numbers: mean z-score and z-score: higher = stronger reporter signal, weaker E2 silencing. Hit rule: 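Hit if mean z-score reaches 2 and two or more of three replicate z-scores also reach 2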.
This is a random part of about 21,000 reagents tested. 497 of them (2.4%) were called active. 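Higher z means weaker E2 silencing; only reporter increases were scored, and knock-downs that hurt cell survival may mask genuine repressor factors.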

gene symbol | mean z-score | z-score, replicate A | z-score, replicate B | z-score, replicate C | outcome
RNF126 (ring finger protein 126) | -0.04 | 0.34 | -0.22 | -0.24 | inactive
IRF4 (interferon regulatory factor 4) | -1.24 | -1.19 | -1.09 | -1.44 | inactive
MS4A1 (membrane spanning 4-domains A1) | 0.41 | 0.23 | 0.51 | 0.48 | inactive
CD300LG (CD300 molecule like family member g) | 0.57 | 0.46 | 1.25 | -0.01 | inactive
PAQR5 (progestin and adipoQ receptor family member 5) | -0.03 | 0.02 | -0.09 | -0.02 | inactive
HOXA4 (homeobox A4) | 0.93 | 0.91 | 1.16 | 0.72 | inactive
HSD17B12 (hydroxysteroid 17-beta dehydrogenase 12) | 0.05 | -0.06 | 0.71 | -0.49 | inactive
NOX1 (NADPH oxidase 1) | -0.93 | -1.03 | -1.16 | -0.61 | inactive
SFXN2 (sideroflexin 2) | -1.63 | -1.99 | -1.39 | -1.51 | inactive
SLC27A5 | -0.83 | -0.46 | -0.98 | -1.06 | inactive
DVL3 (dishevelled segment polarity protein 3) | -0.67 | -0.44 | -0.93 | -0.63 | inactive
H2AC4 (H2A clustered histone 4) | -1.21 | -1.31 | -1.22 | -1.1 | inactive
PCYT2 (phosphate cytidylyltransferase 2, ethanolamine) | 0.08 | – | 0.05 | 0.1 | inactive
PDS5B (PDS5 cohesin associated factor B) | -0.6 | -1.3 | -0.12 | -0.39 | inactive
ERCC2 (ERCC excision repair 2, TFIIH core complex helicase subunit) | 0.2 | 0.18 | 0.15 | 0.26 | inactive
LIMS2 (LIM zinc finger domain containing 2) | 0 | -0.22 | -0.08 | 0.3 | inactive
DYNLRB1 (dynein light chain roadblock-type 1) | 1.11 | 1.34 | 0.9 | 1.07 | inactive
TOX3 (TOX high mobility group box family member 3) | 0.17 | -0.17 | 0.16 | 0.53 | inactive
WHR1 (winged helix repair factor 1) | -1.99 | -1.87 | -2.28 | -1.81 | inactive
RPL27A (ribosomal protein L27a) | -2.05 | -1.99 | -2.14 | -2.03 | inactive
BHMT2 (betaine--homocysteine S-methyltransferase 2) | 0.92 | 0.88 | 1.18 | 0.7 | inactive
SPINT1 (serine peptidase inhibitor, Kunitz type 1) | 0.46 | 0.51 | 0.59 | 0.27 | inactive
XTBD1 (XRN2 binding domain containing 1) | 0.54 | 0.19 | 0.55 | 0.88 | inactive
ATG4A (autophagy related 4A cysteine peptidase) | 0.1 | -0.22 | -0.1 | 0.63 | inactive
MR1 (major histocompatibility complex, class I-related) | -0.07 | -0.21 | 0.02 | -0.03 | inactive
ZNF687 (zinc finger protein 687) | -0.55 | -0.08 | -0.83 | -0.73 | inactive
LOC400638 (retired record) | -0.22 | -0.08 | -0.42 | -0.15 | inactive
CAMK1G (calcium/calmodulin dependent protein kinase IG) | -0.26 | -0.69 | 0.05 | -0.13 | inactive
ZNF260 (zinc finger protein 260) | -0.47 | -0.62 | -0.22 | -0.57 | inactive
ADAM19 (ADAM metallopeptidase domain 19) | -0.23 | -0.24 | -0.39 | -0.07 | inactive
TRIM55 (tripartite motif containing 55) | 0.59 | 0.25 | 1.11 | 0.39 | inactive
GCNA (germ cell nuclear acidic peptidase) | 0.83 | 0.79 | 0.4 | 1.29 | inactive
LOC389771 (retired record) | 0.7 | 0.57 | 0.81 | 0.71 | inactive
HK2 (hexokinase 2) | 2.07 | 2.46 | 1.88 | 1.88 | inactive
SAP18 (Sin3A associated protein 18) | 0.19 | -0.08 | 0.14 | 0.51 | inactive
CARD19 (caspase recruitment domain family member 19) | 0.99 | 1.01 | 0.81 | 1.15 | inactive
MYOZ1 (myozenin 1) | 0.54 | 0.19 | 0.07 | 1.37 | inactive

Single entries from the entries so far.
Under “z-score, replicate C”, NOX1 (NADPH oxidase 1) shows -0.61
ATG4A (autophagy related 4A cysteine peptidase), mean z-score → 0.1
Result of SLC27A5 under “z-score, replicate B”: -0.98
Value for XTBD1 (XRN2 binding domain containing 1) under “z-score, replicate C”: 0.88
MS4A1 (membrane spanning 4-domains A1), mean z-score: 0.41
GCNA (germ cell nuclear acidic peptidase), z-score, replicate A: 0.79

Additional entries follow:
gene symbol | mean z-score | z-score, replicate A | z-score, replicate B | z-score, replicate C | outcome
PLIN4 (perilipin 4) | 0.77 | 0.96 | 0.53 | 0.83 | inactive
SLC1A3 | 0.41 | 0.51 | 0.11 | 0.62 | inactive
TEX13A (testis expressed 13A) | 1.6 | 1.28 | 1.89 | 1.64 | inactive
SPON2 (spondin 2) | 0.14 | 0 | 0.42 | 0.01 | inactive
KIAA0087 (KIAA0087 lncRNA) | 2.72 | 2.74 | 2.66 | 2.76 | active
LOC389192 (retired record) | 0.01 | -0.31 | 0.01 | 0.33 | inactive
POLR2C (RNA polymerase II subunit C) | -4.71 | -5.05 | -4.62 | -4.47 | inactive
LOC346545 (retired record) | -0.76 | -1.07 | -0.35 | -0.84 | inactive
ARG1 (arginase 1) | 0.29 | 0.17 | 0.4 | 0.3 | inactive
NUTM1 (NUT midline carcinoma family member 1) | -0.21 | -0.31 | 0.01 | -0.31 | inactive
RBM34 (RNA binding motif protein 34) | -0.59 | -0.49 | -0.68 | -0.59 | inactive
USP48 (ubiquitin specific peptidase 48) | 2.73 | 3.12 | 2.03 | 3.05 | active
FAM177A1 (family with sequence similarity 177 member A1) | -1.46 | -1.32 | -1.48 | -1.57 | inactive
PRLR (prolactin receptor) | -0.1 | -0.18 | 0 | -0.13 | inactive
GTSF1L (gametocyte specific factor 1 like) | 0.18 | 0.16 | 0.61 | -0.23 | inactive
UNC5B (unc-5 netrin receptor B) | -0.32 | -0.22 | -0.47 | -0.26 | inactive
ZNF488 (zinc finger protein 488) | -1.2 | -1.18 | -1.21 | -1.2 | inactive
MYF5 (myogenic factor 5) | 0.83 | 0.84 | 0.86 | 0.77 | inactive
GPR21 (G protein-coupled receptor 21) | -0.31 | -0.19 | -0.17 | -0.58 | inactive
IP6K2 (inositol hexakisphosphate kinase 2) | 0.54 | 0.33 | 0.58 | 0.7 | inactive
